The source made the active and inactive calls. The rule behind the calls is not given here.

In the first test the test system is Leishmania donovani. Kind of test: In vitro inhibitory activity against Leishmania donovani; Inactive.
Regarding `CC(=O)OCC(CO)OC(COC(C)=O)n1cnc2c(N)nc(N)nc21` (configuration not stated), the outcome was inactive.
On to `CC(=O)OCC(CCl)OC(COC(C)=O)n1cnc2c(N)ncnc21` (configuration not stated), for which the outcome was inactive.
Regarding `CCSCC(COC(C)=O)OC(COC(C)=O)n1cnc2c(N)ncnc21` (configuration not stated), the outcome was inactive.
Turning to `CCC(COC(C)=O)OC(COC(C)=O)n1cnc2c(N)ncnc21` (configuration not stated), the outcome was inactive.
Same read-out and setting: next, `CC(=O)OCC(CO)OC(COC(C)=O)n1cnc2c(F)nc(N)nc21` (configuration not stated): “inactive”.
Still for that read-out and setting: under `CCSCC(CO)OC(CO)n1cnc2c(N)ncnc21` (configuration not stated) stands “inactive”.

Another test concerns Escherichia coli. Nature of the test: Inhibition of Escherichia coli threonine synthase expressed as inactivation constant; d: indicates competitive inhibitor.
As to `N[C@@H](CSCP(=O)(O)O)C(=O)O`, the K inact entry is recorded as “d”.
